{"source": "paper PMC10823733", "about": "“Promising antibacterial efficacy of arenicin peptides against the emerging opportunistic pathogen Mycobacterium abscessus” (Journal of Biomedical Science, 2024)", "test_system": "A498 cells", "experiment": "Cytotoxic assay on human cells (resazurin)", "assay_type": "cell-based", "method": "The toxicity of each peptide was evaluated on human cell lines using a resazurin assay as previously described. Human lung epithelial cells BEAS-2B (ATCC CRL-9609), liver cells HepG2 (ATCC HB-8065), and kidney cells A498 (ATCC HTB-44) were used. All cells were cultured in Dulbecco's modified essential medium (DMEM) supplemented with 10% heat-inactivated fetal calf serum (FBS, Thermo Fisher Scientific), and 1% L-glutamine (Thermo Fisher Scientific) (DMEM^FBS) at 37 °C in a 5% CO2 incubator to subconfluent concentrations. Cells were detached with trypsin–EDTA solution (Thermo Fisher Scientific), and around 1 × 10^4 cells/well were seeded in 96-well flat-bottom microplates (Greiner Bio-One) with a lid, and cultured for additional 48–72 h at 37 °C and 5% CO2 until cell confluence. The medium was removed, and 100 µL of serial two-fold dilutions of the peptides in DMEM^FBS were added to each well. Following a 48 h-incubation period at 37 °C and 5% CO2, cell viability was evaluated using the resazurin assay as described above. Fluorescence of the resazurin metabolite resorufin (λex/λem = 530/590 nm) was measured after 2 h incubation at 37 °C and 5% CO2 in the dark, with a microplate reader (Biotek, Synergy Mx, Colmar, France). […]", "note": "Positions of bridges follow the written chain, without caps; N, C: chain ends. Residues, ends and D or L forms follow the SMILES beside them."}
{"smiles": "CC(C)[C@@H]1NC(=O)CNC(=O)[C@H](CC(N)=O)NC(=O)[C@H](CCCNC(=N)N)NC(=O)[C@H](Cc2ccc(O)cc2)NC(=O)[C@H](C(C)C)NC(=O)[C@@H]2CSSC[C@H](NC(=O)[C@H](C(C)C)NC(=O)[C@H](CCCNC(=N)N)NC1=O)C(=O)N[C@@H](Cc1ccc(O)cc1)C(=O)N[C@@H](CCCNC(=N)N)C(=O)N[C@@H](CCCNC(=N)N)C(=O)N[C@H](C(=O)N[C@@H](CC(N)=O)C(=O)O)CSSC[C@H](NC(=O)[C@H](Cc1ccccc1)NC(=O)CN)C(=O)N[C@@H](Cc1c[nH]c3ccccc13)C(=O)N[C@@H](Cc1ccc(O)cc1)C(=O)N[C@@H](C(C)C)C(=O)N2", "note": "[Ar-3] (H-GFCWYVCVYRNGVRVCYRRCN-OH; disulfide 3-20, 7-16)", "values": [{"measurement": "TIA498 (therapeutic index)", "setting": "CC50 on A498 divided by MIC50, R variant", "result": 1.0}, {"measurement": "TIA498 (therapeutic index)", "setting": "CC50 on A498 divided by MIC50, S variant", "result": 8.8}]}
